A mixed list of measured activities; the numbers were collected in NIAID ChemDB.

All rows: tests in culture; species: Hepatitis C virus; cells: Huh7; method: replicon; endpoint: EC50

Neighbouring rows are from separate reports.

structure | value
Cc1cnc(CN2C(=O)C(c3ccc(NC(=O)[C@H]4CCC(=O)N4C(=O)OCc4ccccc4)cc3)SC2=Nc2ccc(N3CCOCC3)cc2)cn1 | <0.1 µM
COc1cccc(CC(=O)N/N=C/c2cc(Br)ccc2OS(=O)(=O)c2ccc(C(F)(F)F)cc2)c1 | <5 µM
O=C(O)c1ccc2c(C3CCCCC3)c3n(c2c1)C=C(C(=O)N1CCOCC1)Cc1ccncc1-3 | >10 µM
CNC(=O)c1c(-c2ccc(F)cc2)oc2cc(N(C)S(C)(=O)=O)c(OCCn3nc(C)cc3C)cc12 | <1 µM
Cn1cnc(S(=O)(=O)NC(=O)c2ccc3c(C4CCCCC4)c4n(c3c2)CCCc2ccccc2-4)c1 | 1–10 µM
COc1ccc(CC(=O)N/N=C/c2ccccc2OS(=O)(=O)c2ccc(C(F)(F)F)cc2)cc1 | <5 µM
O=C(O)/C=C/c1ccc(NCC2(NC(=O)c3ccc4c(C5CCCCC5)c5n(c4c3)CC(C(=O)N3CCCCC3)Cc3ccccc3-5)CCCC2)cc1 | 0.01–1 µM
COc1cccc(CC(=O)N/N=C/c2ccccc2OS(=O)(=O)c2ccc(C)cc2)c1 | <5 µM
O=C(O)c1ccc2c(C3CCCCC3)c3n(c2c1)C[C@@H](O)[C@@H](O)c1ncccc1-3 | 1–10 µM
CCC(C)c1ccc(N=C2SC(c3ccc(NC(=O)[C@@H](C)NC(=O)OCc4ccccc4)cc3)C(=O)N2Cc2ccco2)cc1 | 1–5 µM
CCN(CC)c1cc2oc(-c3ccc(F)cc3)c(C(=O)NC)c2cc1OC(C)C | <1 µM
COc1ccc(CCN2C(=O)C(c3ccc(NC(=O)[C@H]4CCCN4C(=O)OCc4ccccc4)cc3)SC2=Nc2cccc(F)c2)cc1OC | 1–5 µM
CNC(=O)c1c(-c2ccc(F)cc2)oc2cc(N(C)S(=O)(=O)CC3CC3)c(OC(C)C)cc12 | <1 µM
O=C(NS(=O)(=O)N1CCCC1)c1ccc2c(C3CCCCC3)c3n(c2c1)CC(C(=O)N1CCOCC1)=Cc1ccccc1-3 | 0.01–1 µM
CNC(=O)c1c(-c2ccc(F)cc2)oc2cc(C3(C)NC(=O)NC3=O)c(OC)cc12 | <10 µM
O=C(Cc1nc(-c2cnccn2)no1)N/N=C/c1ccccc1OS(=O)(=O)c1ccc(C(F)(F)F)cc1 | 5–50 µM
CNC(=O)c1c(-c2ccc(F)cc2)oc2cc(N(CS(C)(=O)=O)OC)c(O)cc12 | <10 µM
CN(CC(O)CO)C(=O)C1=Cc2ccccc2-c2c(C3CCCCC3)c3ccc(C(=O)NS(=O)(=O)N(C)C)cc3n2C1 | 0.01–1 µM
CNC(=O)c1c(-c2ccc(F)cc2)oc2cc(NS(C)(=O)=O)c(OC)cc12 | <1 µM
COc1cccc(CC(=O)N/N=C/c2c(F)cccc2OS(=O)(=O)c2ccc(C)cc2)c1 | 5–50 µM
CNC(=O)c1c(-c2ccc(F)cc2)oc2cc(OCc3ccccc3)c(OC)cc12 | <10 µM
O=C(O)c1ccc2c(C3CCCCC3)c3n(c2c1)CCCn1cccc1-3 | >10 µM
CNC(=O)c1c(-c2ccc(F)cc2)oc2cc(C(C)(C)N)c(OC)cc12 | <30 µM
CC(C)N=C1SC(c2ccc(NC(=O)[C@@H](C)NC(=O)Cc3ccccc3)cc2)C(=O)N1Cc1ccccn1 | <0.1 µM

Repeating the final 2 entries:

structure,value
CNC(=O)c1c(-c2ccc(F)cc2)oc2cc(C(C)(C)N)c(OC)cc12,<30 µM
CC(C)N=C1SC(c2ccc(NC(=O)[C@@H](C)NC(=O)Cc3ccccc3)cc2)C(=O)N1Cc1ccccn1,<0.1 µM

ECn: concentration that inhibits the pathogen or its effect by n%. a–b is a range or a potency band.